From PMC3845358 (Journal of immunology (Baltimore, Md. : 1950), 2013)

Test system: C57BL6 mice challenged with H1N1 (A/PR/8/34)
Assay: H1N1 influenza pneumonia model
Settings: mouse, in vivo

## c1ccc(-c2ccc(CNCCNCc3ccc(-c4ccccn4)cc3)cc2)nc1 [BC-1215]
  lung resistance: decreased lung resistance
